Results of unrelated studies side by side (data: NIAID ChemDB).

Common to all: growth or infection tests; species: Human cytomegalovirus

Inhibition is in % at the dose shown (toxicity tests: loss of growth or viability). ECn: concentration that inhibits the pathogen or its effect by n%. Conditions beyond the fields shown may differ between rows. An empty or dashed field is not shown. a–b is a range or a potency band.

Cn1cc(C(=O)NCc2ccc(Cl)cc2)c(=O)c2cc(CN3CCOCC3)ccc21 ; cells: HFF ; read by: plaque count ; strain or isolate: NE ; tested at: 5.9 µM ; endpoint: inhibition ; value: 90%
Nc1nc2c(ncn2COC(CO)CO)c(=O)[nH]1 ; cells: HFF ; read by: virus yield ; strain or isolate: TOWNE ; endpoint: EC90 ; value: 1.6 µM
OC[C@H]1O[C@@H](n2c(Br)nc3cc(Cl)c(Cl)cc32)[C@H](O)[C@@H]1O ; cells: HFF ; read by: virus yield ; strain or isolate: TOWNE ; endpoint: EC90 ; value: 0.48 µM
Nc1ccn(C[C@H]2COP(=O)(O)CO2)c(=O)n1.O=C(O)P(=O)(O)O ; cells: MRC-5 ; read by: plaque count ; strain or isolate: PAAR ; endpoint: EC75 ; value: 0.93 µM
CC(C)Nc1nc2cc(Cl)c(Cl)cc2n1[C@@H]1O[C@H](CO)[C@@H](O)[C@H]1O ; cells: MRC-5 ; read by: hybridisation ; strain or isolate: AD169 ; endpoint: EC50 ; value: 2.3 µM
O=C(NCc1ccc(Cl)cc1)c1c[nH]c2c(F)cc(CCCO)cc2c1=O ; read by: plaque count ; strain or isolate: AD169 ; endpoint: EC90 ; value: 3.5 µM
Nc1ccn([C@@H]2O[C@H](CO)[C@@H](O)[C@@H]2O)c(=O)n1 ; cells: HEL ; read by: plaque count ; tested at: 0.02 µM ; endpoint: inhibition ; value: 51.1%
COc1cccc(N2CCN(C3=Nc4c(F)cccc4[C@H](CC(=O)O)N3c3cc(C(F)(F)F)ccc3OC)CC2)c1 ; read by: plaque count ; strain or isolate: Clinical isolate 10 ; endpoint: EC50 ; value: 0.013 µM
Nc1ccn(C[C@@H](CO)OCP(=O)(O)O)c(=O)n1 ; cells: MRC-5 ; read by: plaque count ; strain or isolate: PAAR ; endpoint: EC75 ; value: 0.96 µM
CSc1ncnc2c1ncn2[C@@H]1OC2COP(=O)(O)OC2[C@H]1O ; endpoint: MIC ; value: 3.2 µg/mL
OC[C@H]1O[C@@H](n2c(Br)nc3cc(Cl)c(Cl)cc32)[C@H](O)[C@@H]1O ; cells: MRC-5 ; read by: hybridisation ; strain or isolate: 9219REC7 (LEU595DEL) ; endpoint: EC50 ; value: 1 µM
O=C(O)P(=O)(O)O ; cells: MRC-5 ; read by: plaque count ; strain or isolate: PAAR ; endpoint: EC75 ; value: 122 µM
Nc1nc2c(ncn2COC(CO)CO)c(=O)[nH]1 ; read by: virus yield ; strain or isolate: R56 ; endpoint: EC95 ; value: 2.9 µM
CC(C)Nc1nc2cc(Cl)c(Cl)cc2n1[C@H]1O[C@@H](CO)[C@H](O)[C@@H]1O ; cells: HFF ; read by: virus yield ; strain or isolate: AD169 ; endpoint: EC90 ; value: 0.19 µM
O=C(NCc1ccc(Cl)cc1)c1c[nH]c2ccc(C#CCO)cc2c1=O ; read by: plaque count ; strain or isolate: Clinical isolates ; endpoint: EC90 ; value: 7.2 µM
O=P1(O)OCC2O[C@@H](n3cnc4c(=S)nc[nH]c43)[C@H](O)C2O1 ; endpoint: MIC ; value: 3.2–100 µg/mL
Nc1ccn(C[C@@H](CO)OCP(=O)(O)O)c(=O)n1.O=C(O)P(=O)(O)O ; cells: MRC-5 ; read by: plaque count ; strain or isolate: Towne (ganciclovir- foscarnet-susceptible) ; endpoint: EC75 ; value: 0.74 µM
OC[C@H]1O[C@@H](n2c(Br)nc3cc(Cl)c(Cl)cc32)[C@H](O)[C@@H]1O ; cells: HFF ; read by: virus yield ; strain or isolate: C4 (BDCRB-resistant) ; endpoint: EC90 ; value: 23 µM
OC[C@@H]1O[C@@H](n2c(Cl)nc3cc(Cl)c(Cl)cc32)[C@H](O)[C@@H]1O ; cells: HFF ; read by: virus yield ; strain or isolate: TOWNE ; endpoint: EC90 ; value: 9.2 µM
Nc1nc2c(ncn2C=C2CC2CO)c(=O)[nH]1 ; read by: plaque count ; strain or isolate: VR5120 (ganciclovir-resistant) ; endpoint: EC90 ; value: 4.8 µM
O=C(NCc1ccc(Cl)cc1)c1c[nH]c2ccc(CCCO)cc2c1=O ; read by: plaque count ; strain or isolate: ADI ; endpoint: EC50 ; value: 0.95 µM
Nc1nc2c(ncn2COC(CO)CO)c(=O)[nH]1 ; cells: HFF ; read by: virus yield ; strain or isolate: TOWNE ; endpoint: EC90 ; value: 3.2 µM
Clc1ccc(Nc2ncnc3ccccc23)cc1Cl ; cells: HFF ; read by: plaque count ; strain or isolate: AD169-GFP ; tested at: 3.3 µM ; endpoint: inhibition ; value: 92%
O=c1[nH]c(=O)n([C@H]2C[C@H](O)[C@@H](CO)O2)cc1/C=C/Br ; cells: HEL ; read by: plaque count ; tested at: 10 µM ; endpoint: inhibition ; value: 24.3%

Repeating the final 2 entries:

SMILES,cells,read by,strain or isolate,tested at,endpoint,value
Clc1ccc(Nc2ncnc3ccccc23)cc1Cl,HFF,plaque count,AD169-GFP,3.3 µM,inhibition,92%
O=c1[nH]c(=O)n([C@H]2C[C@H](O)[C@@H](CO)O2)cc1/C=C/Br,HEL,plaque count,-,10 µM,inhibition,24.3%